Source: patent US20030216569A1, “Method of making HIV protease inhibitors” (priority 1993, published 2003)

System: HIV-1 isolates IIIB and/or RF in CEM cells
Assay: SRI primary anti-HIV screen, MTT assay of inhibition of HIV-induced cell killing in CEM cells
Type: cell-based

SMILES | SRI CEM IC50
CC(C)(C)NC(=O)[C@@H]1C[C@@H]2CCCC[C@@H]2CN1C[C@@H](O)[C@H](Cc1ccccc1)NC(=O)c1cccc(Cl)c1Cl (relative stereo) | 2550 ng/mL and 1240 ng/mL
Cc1cnccc1C(=O)N[C@@H](CSc1ccccc1)[C@H](O)CN1CCN(Cc2cccnc2)C[C@H]1C(=O)NC(C)(C)C (relative stereo) | 501 ng/mL and 156 ng/mL

A number of entries come with more than one value. The list is limited to them. There may be further records. Results that share an entry do not match, cause unknown; some may be repeats, others may stem from another dose, organism or construct than stated.
